Results of unrelated studies side by side (data: NIAID ChemDB).

All rows: growth or infection tests; organism: HIV-1; method: cytopathic effect / XTT; endpoint: EC50

ECn is the concentration giving n% inhibition of infection, replication or growth. An empty or dashed field is not shown. Rows are shuffled and stem from different studies.

SMILES,strain,changes,cell line,result
COc1cc(Cc2cnc(/N=C3\C(=O)N(CN4CCN(Cc5ccccc5)CC4)c4ccc(F)cc43)nc2N)cc(OC)c1OC,-,-,CEM,>112 µg/mL
COc1nc(N)nc2c1ncn2[C@H]1C=C[C@@H](CO)C1,IIIB,-,MT-2,6.85 µM
CCOC(=O)c1cccn1S(=O)(=O)c1cc(Cl)ccc1NC(=O)COC,IIIB,-,MT-4,0.4 µM
Cn1cc(NC(=O)Nc2cc(C(=O)Nc3cc(C(=O)Nc4ccc(S(=O)(=O)O)c5cc(S(=O)(=O)O)ccc45)n(C)c3)n(C)c2)cc1C(=O)Nc1cc(C(=O)Nc2ccc(S(=O)(=O)O)c3cc(S(=O)(=O)O)ccc23)n(C)c1,RF,-,CEM + CEM-SS,1.5 µM
COc1ccc(/C=C2/C(=O)C(c3ccccc3)N(c3ccccc3)C2=O)cc1OC,-,-,CEM + CEM-SS,<200 µM
CCOC(=O)c1cccn1S(=O)(=O)c1ccc([N+](=O)[O-])cc1,IIIB,-,MT-4,>200 µM
CCOC(=O)c1c(C(C)C)c(C#N)c(=N)n2ccccc12,RF,-,CEM + CEM-SS,14 µg/mL
COc1cc(Cc2cnc(/N=C3\C(=O)N(CN4CCN(c5cccc(C(F)(F)F)c5)CC4)c4ccc(F)cc43)nc2N)cc(OC)c1OC,-,-,CEM,>127 µg/mL
CCOC(=O)c1cccn1S(=O)(=O)c1ccc(NC(N)=O)cc1,IIIB,-,MT-4,>128.8 µM
CCCOc1nc(N)nc2c1ncn2[C@@H]1C=C[C@H](CO)C1,IIIB,-,MT-2,2.49 µM
COc1ccc2c(c1)OC[C@@H]1c3cc(O)c(OCc4ccc5ccccc5c4)cc3O[C@]21C,RF,-,CEM + CEM-SS,>3.35 µM
CC(C)=CCOc1cc(NC(=S)c2ccoc2C)ccc1Cl,IIIB,-,CEM + CEM-SS,0.01 µM
Nc1nc(N)c2ncn([C@H]3C=C[C@@H](CO)C3)c2n1,IIIB,-,MT-2,12.6 µM
CC(C)=CCOc1cc(NC(=S)c2ccsc2C)ccc1Cl,IIIB,-,MT-2,0.005 µM
CCOC(=O)c1cccn1S(=O)(=O)c1cc(Cl)ccc1NC(=O)c1ccc(C)cc1,IIIB,-,MT-4,>200 µM
CC(C)=CCN1Cc2cc(Cl)cc3[nH]c(=O)n(c23)C[C@@H]1C,IIIB,RT-Y181C,MT-4,124 µM
O=C(O)c1cc(Cc2cc(C(c3ccc(O)c(C(=O)O)c3)c3ccc(O)c(C(=O)O)c3)cc(C(=O)O)c2O)ccc1O,IIIB,-,CEM,0.4 µg/mL
Cc1c(O)cccc1C(=O)N[C@@H](Cc1ccccc1)[C@H](O)CN1C[C@H]2CCCC[C@H]2C[C@H]1C(=O)NC(C)(C)C,HXB2,-,CEM + CEM-SS,0.033 µM
COc1cc(Cc2cnc(/N=C3\C(=O)N(CN4CCN(c5ccc(Cl)cc5)CC4)c4ccc(F)cc43)nc2N)cc(OC)c1OC,-,-,CEM,>95.6 µg/mL
COc1ccccc1C(=O)Nc1ccc(Cl)c(C(=O)OC(C)C)c1,UC040-R (RT-Y181C),RT-Y181C,CEM + CEM-SS,6.8 µM
COc1cc(Cc2cnc(/N=C3\C(=O)N(CN4CCN(C)CC4)c4ccc(F)cc43)nc2N)cc(OC)c1OC,-,-,CEM,>115 µg/mL
CCOC(=O)c1cccn1S(=O)(=O)c1ccc(N)cc1,IIIB,-,MT-4,179 µM
O=C(O)c1cc(C(c2ccc(O)c(C(=O)O)c2)c2ccc(O)c(C(=O)O)c2)ccc1O,IIIB,-,CEM,0.6 µg/mL
CCN(CC)c1cc(OCc2ccccc2)cc2c1[C@H]1COc3cc(OC)ccc3[C@H]1O2,RF,-,CEM + CEM-SS,>200 µM
COc1cc(-c2ccc(N=Nc3ccc4c(S(=O)(=O)O)cc(S(=O)(=O)O)c(N)c4c3O)c(OC)c2)ccc1N=Nc1ccc2c(S(=O)(=O)O)cc(S(=O)(=O)O)c(N)c2c1O,TP1,-,CEM + CEM-SS,0.6 µM
CC(=O)OC[C@@H]1OC(Oc2ccc(C(=O)/C=C/c3ccc(O)c(O)c3)c(O)c2O)[C@@H](O)[C@H](OC(C)=O)[C@H]1OC(C)=O,MN,-,C8166,20 µM
CCCCCOc1nc(N)nc2c1ncn2[C@H]1C=C[C@@H](CO)C1,IIIB,-,MT-2,7.03 µM
COc1ccc2c(c1)O[C@@H]1c3ccc(OC)cc3OC[C@H]21,RF,-,CEM + CEM-SS,>25 µM
CCOC(=O)c1cccn1S(=O)(=O)c1cc(Cl)ccc1NC(C)=O,IIIB,-,MT-4,1 µM
Oc1cc2c(cc1OCc1ccccc1)O[C@@H]1c3ccccc3OC[C@H]21,RF,-,CEM + CEM-SS,>2.48 µM
CCCCCC(=O)Nc1ccc(Cl)cc1S(=O)(=O)n1cccc1C(=O)OCC,IIIB,-,MT-4,4.4 µM
CC(C)=CCC[C@]1(C)C=Cc2c(ccc3c2C(=O)C(=O)C(CC2=CC(=O)c4ccccc4C2=O)=C3O)O1,RF,-,MT-4,>50 µM
COc1ccc2c(c1)OC[C@@H]1c3cc(O)c(OCc4ccccc4)cc3O[C@]21C,RF,-,CEM + CEM-SS,>18.2 µM
CCOC(=O)c1cccn1S(=O)(=O)c1cccc(NC=O)c1,IIIB,-,MT-4,200 µM

For reference, 2 entries again:

SMILES | strain | changes | cell line | result
CC(=O)OC[C@@H]1OC(Oc2ccc(C(=O)/C=C/c3ccc(O)c(O)c3)c(O)c2O)[C@@H](O)[C@H](OC(C)=O)[C@H]1OC(C)=O | MN | - | C8166 | 20 µM
CCN(CC)c1cc(OCc2ccccc2)cc2c1[C@H]1COc3cc(OC)ccc3[C@H]1O2 | RF | - | CEM + CEM-SS | >200 µM